Source: publication PMC2743695 (BMC Structural Biology, 2009)

Tested on: C[C@@H](N)C(=O)O
Test: purified protein

AlrBax (Dal1, alanine racemase from Bacillus anthracis Ames) (Bacillus anthracis)
Km: 2800 µM
